Consider one compound from PubChem BioAssay AID504863 (Sanford-Burnham Center for Chemical Genomics, 2011).

This experiment deals with diaphorase (Clostridium kluyveri). The experiment in a line: C. kluyveri diaphorase inhibition, resazurin coupling – biochemical, fluorescence intensity, 30 µM NADPH, counter-screen for P. falciparum G6PD inhibitor project, confirmation (AID 504863).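 Further: 0% = DMSO with enzyme and 100% = DMSO wells lacking diaphorase.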 The conditions noted are these: Diaphorase/resazurin coupled assay, resorufin fluorescence, at 20 µM, hits give high values.

The entries are a selection whose mix differs from that of the whole data set. Active and inactive are the calls of the source.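 How the source made its calls: active means inhibition averaging 50% or more, tested at 20 µM; inactive means the rest.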

As to `CN(C)C(=O)c1cc([N+](=O)[O-])cc2c1-c1c(cc([N+](=O)[O-])cc1[N+](=O)[O-])C2=O`, the inhibition is active: 79.8%.
